The target of experiment [1] is C215Fab-SEA/E-120.
For experiment [2], the target named is ABR-217620 (naptumomab estafenatox, 5T4Fab-SEA/E-120). The experiment in a line: SPR.
For experiment [3], the target named is Recombinant human 5T4-IgG1Fc (Homo sapiens, UniProt Q13641).

“soluble TCR reagent TRBV7-9 (disulfide-linked αβ-heterodimer)”: the Kd in experiment [1] worked out at 580 nM; in experiment [2] it was 480 nM.

B1: ABR-217620 (naptumomab estafenatox, 5T4Fab-SEA/E-120) (Fab, V domains shown)
VH: EVQLQQSGPDLVKPGASVKISCKASGYSFTGYYMHWVKQSPGKGLEWIGRINPNNGVTLYNQKFKDKATLTVDKSSTTAYMELRSLTSEDSAVYYCARSTMITNYVMDYWGQGTSVTVSS
VL: SIVMTQTPTSLLVSAGDRVTITCKASQSVSNDVAWYQQKPGQSPKLLISYTSSRYAGVPDRFSGSGYGTDFTLTISSVQAEDAAVYFCQQDYNSPPTFGGGTKLEIK
As to B1, in experiment [3], the Kd amounted to 0.21 nM, the koff turned out to be 7.5e-05 s⁻¹ and the kon stood at 360000 M⁻¹ s⁻¹.

As a reminder, the Kd is the constant that tells how readily two partners part at equilibrium. What is called koff is the rate constant with which the complex falls apart. Usually kon stands for a measure of how fast the partners come together.

For the origin of these results see publication PMC3806850, “The Tumor Targeted Superantigen ABR-217620 Selectively Engages TRBV7-9 and Exploits TCR-pMHC Affinity Mimicry in Mediating T Cell Cytotoxicity” (PLoS ONE, 2013).
